Holding throughout (assay): fold change of IC50 against reference virus; higher = more resistant; Cell-culture drug susceptibility tests of virus bearing the protease of each isolate, gathered from many studies.
Compound in test [1]: CC(C)c1nc(CN(C)C(=O)N[C@H](C(=O)N[C@@H](Cc2ccccc2)C[C@H](O)[C@H](Cc2ccccc2)NC(=O)OCc2cncs2)C(C)C)cs1 [ritonavir]
Compound in test [2]: CC(C)(C)NC(=O)[C@@H]1C[C@@H]2CCCC[C@@H]2CN1C[C@@H](O)[C@H](Cc1ccccc1)NC(=O)[C@H](CC(N)=O)NC(=O)c1ccc2ccccc2n1 [saquinavir]
Compound in test [3]: CC(C)(C)NC(=O)[C@@H]1CN(Cc2cccnc2)CCN1C[C@@H](O)C[C@@H](Cc1ccccc1)C(=O)N[C@H]1c2ccccc2C[C@H]1O [indinavir]

Fold change is the IC50 on the isolate divided by the IC50 on a reference virus; 1 = unchanged, higher = more resistant. Changes are given against the subtype B consensus. No active / inactive call. The values were gathered from many studies (numbered anew) with different assays, which the source does not name. Most viruses are clinical isolates; some are laboratory strains or clones with known resistance changes. Isolates with mixed residues are left out; stretches that were not sequenced show no change. Round top values that many isolates share are read here as limits; other very high values and 0.1 may be limits too. The protease changes I3V and N37S, insertions and deletions cannot be read from the source.

For “HIV-1 isolate 49 (protease changes: I13V V32I M46I I47V L63P I64V Q92L I93L, study 130)”, the “fold change of IC50 against reference virus” value (from here on “fold change of IC50”) is 8 in test [1], 1 in test [2] and 8 in test [3].

Regarding “HIV-1 isolate 1144 (protease changes: L10I M36I L63H L90M, study 82)”, the “fold change of IC50” value in test [1] came out at 1.4; in test [2] it was 1.5; in test [3], 0.5.

As for “HIV-1 isolate 1564 (protease changes: L10R, study 91)”, the “fold change of IC50” value in test [1] turned out to be 1; in test [2] it was 2; in test [3], 0.5.

Take “HIV-1 isolate 106 (protease changes: M46I R57G L63P A71V V82F I84V, study 5)”: the “fold change of IC50” value in test [1] turned out to be 27; in test [2], 3; in test [3] it was 10.

Turning to “HIV-1 isolate 1346 (protease changes: L10I I15V L24I I54V L63P A71V V82A, study 130)”, the “fold change of IC50” value in test [1] was 8; in test [2], 2; in test [3] it was 30.

Take “HIV-1 isolate 369 (protease changes: L10R L63P V82T, study 91)”: the “fold change of IC50” value was found to be 3.7 in test [1], 1 in test [2] and 2 in test [3].

For “HIV-1 isolate 566 (protease changes: I13V K20R M36I N37D L63P I64V L90M, study 57)”, the “fold change of IC50” value stood at 3 in test [1], 6 in test [2] and 3 in test [3].

On to “HIV-1 isolate 140 (protease changes: L10R L63P V82T I84V, study 91)”, for which the figures for the “fold change of IC50” value in test [1], in test [2] and in test [3] were 1.8, 4 and 1, respectively.

As to “HIV-1 isolate 1157 (protease changes: L10I I15V K20I M36I Q58E I62V L63P G73S L90M, study 112)”, the “fold change of IC50” value in test [1] worked out at 14.7; in test [2], 16.9; in test [3] it was 8.7.

As for “HIV-1 isolate 1166 (protease changes: V32F V82S, study 38)”, the figures for the “fold change of IC50” value in test [1], in test [2] and in test [3] were 3, 1 and 4, respectively.

With “HIV-1 isolate 10 (protease changes: L10Y L63P I64V I84V L90M, study 57)”, the figures for the “fold change of IC50” value in test [1], in test [2] and in test [3] were 1, 6 and 2, respectively.

As for “HIV-1 isolate 1006 (protease changes: M46I L63P V82T I84V, study 91)”, the figures for the “fold change of IC50” value in test [1], in test [2] and in test [3] were 3.7, 8 and 8, respectively.

For “HIV-1 isolate 1351 (protease changes: L10R M46I L63P I84V, study 91)”, the “fold change of IC50” value is 1.8 in test [1], 4 in test [2] and 2 in test [3].

Regarding “HIV-1 isolate 110 (protease changes: L10I Q18E K20R L33I E35D M36I I54V L63P V82F L89M I93L, study 130)”, the entries for the “fold change of IC50” value in test [1], in test [2] and in test [3] were 8, 1 and 1, respectively.

Consider “HIV-1 isolate 902 (protease changes: L10R L63P, study 91)”, for which the results for the “fold change of IC50” value in test [1], in test [2] and in test [3] were 1, 1 and 0.5, respectively.

As for “HIV-1 isolate 95 (protease changes: L10I I15V I62V L63P A71V I72T G73S V77I L90M, study 57)”, the “fold change of IC50” value in test [1] stood at 5; in test [2], 5; in test [3] it was 10.

As to “HIV-1 isolate 237 (protease changes: L63P, study 91)”, the “fold change of IC50” value worked out at 1.8 in test [1], 2 in test [2] and 0.5 in test [3].

Consider “HIV-1 isolate 697 (protease changes: R57G I84V, study 5)”, for which the “fold change of IC50” value in test [1] was determined as 7; in test [2], 2; in test [3], 5.

In the case of “HIV-1 isolate 1176 (protease changes: I13V V32I M46I I47V L63P I64V L90M Q92K I93L, study 130)”, the “fold change of IC50” value in test [1] turned out to be 8; in test [2] it was 1; in test [3], 8.

With “HIV-1 isolate 771 (protease changes: M46I L63P, study 91)”, the “fold change of IC50” value in test [1] was 1; in test [2] it was 1; in test [3], 0.5.

Take “HIV-1 isolate 251 (protease changes: L63P V82T, study 91)”: the figures for the “fold change of IC50” value in test [1], in test [2] and in test [3] were 1.8, 1 and 1, respectively.

With “HIV-1 isolate 443 (protease changes: L10I R41K M46I I54V I62V L63P A71V V77I V82A L90M I93L, study 130)”, the figures for the “fold change of IC50” value in test [1], in test [2] and in test [3] were 8, 8 and 30, respectively.

For “HIV-1 isolate 1133 (protease changes: L10I Q18E K20R L33I E35D M36I I54V L63P V82F L89M L90M I93L, study 130)”, the results for the “fold change of IC50” value in test [1], in test [2] and in test [3] were 8, 1 and 30, respectively.

As to “HIV-1 isolate 476 (protease changes: L10I M46I L63P V77I I84V N88T I93L, study 130)”, the “fold change of IC50” value in test [1] amounted to 2; in test [2], 2; in test [3], 30.

On to “HIV-1 isolate 166 (protease changes: M46I L63P V82T, study 91)”, for which the “fold change of IC50” value turned out to be 3.7 in test [1], 1 in test [2] and 4 in test [3].

On to “HIV-1 isolate 737 (protease changes: L10I I15V L24I M36I P39S I54V I62V L63P A71V V82A, study 130)”, for which the results for the “fold change of IC50” value in test [1], in test [2] and in test [3] were 8, 2 and 8, respectively.

Turning to “HIV-1 isolate 1555 (protease changes: I13V L63A V82I, study 57)”, the results for the “fold change of IC50” value in test [1], in test [2] and in test [3] were 1, 2 and 2, respectively.

“HIV-1 isolate 1385 (protease changes: L10I M46I L63P I66V V77I I84V N88T I93L, study 130)”: the “fold change of IC50” value in test [1] worked out at 8; in test [2], 8; in test [3] it was 30.

Regarding “HIV-1 isolate 898 (protease changes: V32I M46I L63A I64M A71V I72V V82A Q92R, study 130)”, the “fold change of IC50” value was 8 in test [1], 1 in test [2] and 15 in test [3].

As for “HIV-1 isolate 836 (protease changes: L24I M46I I64V E65I V82F I93L, study 130)”, the “fold change of IC50” value in test [1] came to 2; in test [2], 1; in test [3], 4.

For “HIV-1 isolate 1445 (protease changes: I15V V32I E35D M36I L63P A71V V82A, study 130)”, the “fold change of IC50” value in test [1] came to 8; in test [2], 1; in test [3], 4.

Regarding “HIV-1 isolate 1579 (protease changes: L10I T12S I13V I64V V82F, study 130)”, the “fold change of IC50” value in test [1] came to 4; in test [2] it was 1; in test [3], 4.

Regarding “HIV-1 isolate 807 (protease changes: M46I L63P, study 91)”, the “fold change of IC50” value in test [1] was 1.8; in test [2] it was 1; in test [3], 1.

In the case of “HIV-1 isolate 840 (protease changes: L10I M46I I54V Q58E L63P I64V V77I V82F L90M I93L, study 130)”, the “fold change of IC50” value in test [1] stood at 8; in test [2], 8; in test [3] it was 30.

For the origin of these results see the supplement of paper PMC3578754.
